Read-outs that look alike come from different tables or passages of the source.
How the values were obtained:
Tva-HA-Fc [1] = details: parent: est. 1.0; read off a plot
Tva-HA-Fc [2] = details: parent: est. 1.0; read off a plot; remark: listed apart in the source

With “A-gp85-flag wt (soluble gp85 of ALV-A RSA) K268A” the ratio to parent (Tva-HA-Fc [1]) was 0.9.

“A-gp85-flag wt (soluble gp85 of ALV-A RSA) R155A” showed a ratio to parent (Tva-HA-Fc [2]) of 0.85.

Reference: paper PMC9095613, “Residues 140–142, 199–200, 222–223, and 262 in the Surface Glycoprotein of Subgroup A Avian Leukosis Virus Are the Key Sites Determining Tva Receptor Binding Affinity and Infectivity” (2022)
